Values from PubChem BioAssay AID624099 (ICCB-Longwood, 2012)
The whole screen tested about 21,000 reagents; shown is a part drawn at random. 497 of them (2.4%) were called active. 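Higher z means weaker E2 silencing; only reporter increases were scored, and knock-downs that hurt cell survival may mask genuine repressor factors.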 Reagents against one gene are numbered here.

Test: 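Human genes that papillomavirus E2 requires to repress the HPV18 LCR promoter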 (primary screen)
System: human C33A cervical carcinoma cells (HPV-negative) stably expressing BPV1 E2 and an HPV18 LCR luciferase reporter
Reagent: siRNA pool against human genes, 40 nM
Duration: 72 h
Measured: 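Per-well luciferase luminescence, z-scored on each plate against the plate mean and SD with control wells left out, then averaged across three replicate plates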
Direction: mean z-score and z-score: higher = stronger reporter signal, weaker E2 silencing
Call rule: 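Mean z ≥ 2 together with z ≥ 2 in two or more of the three replicates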

gene	pool no.	mean z-score	z-score, replicate A	z-score, replicate B	z-score, replicate C	Outcome
PDE1C (phosphodiesterase 1C)	1	-0.78	-0.78	-0.83	-0.73	inactive
UNC5CL (unc-5 family C-terminal like)	1	-0.8	-0.86	-0.74	-0.68	inactive
EXOC1 (exocyst complex component 1)	1	-0.63	-0.5	-0.52	-0.88	inactive
LOC389139 (retired record)	1	1.22	1.39	0.95	1.34	inactive
ADRB2 (adrenoceptor beta 2)	1	1	0.94	0.8	1.25	inactive
YIPF5 (Yip1 domain family member 5)	1	1.38	1.74	1.24	1.16	inactive
CALM1 (calmodulin 1)	1	-0.05	-0.53	-0.38	0.77	inactive
LAIR1 (leukocyte associated immunoglobulin like receptor 1)	1	1.75	1.76	1.8	1.7	inactive
TRIM64 (tripartite motif containing 64)	1	-0.33	-0.45	-0.36	-0.17	inactive
SEC61B (SEC61 translocon subunit beta)	1	-0.17	-0.39	0.25	-0.37	inactive
CAPS2 (calcyphosine 2)	1	0.32	0.54	0.16	0.27	inactive
FKBP5 (FKBP prolyl isomerase 5)	1	-0.34	-0.12	-0.45	-0.45	inactive
SLC25A19	1	0.24	0.49	0.03	0.21	inactive
C1QTNF6 (C1q and TNF related 6)	1	-0.46	-0.27	-0.41	-0.69	inactive
WDR91 (WD repeat domain 91)	1	-2.16	-2.59	-2.25	-1.62	inactive
SCAND1 (SCAN domain containing 1)	1	0.22	0.53	0.23	-0.11	inactive
ST6GALNAC3 (ST6 N-acetylgalactosaminide alpha-2,6-sialyltransferase 3)	1	-0.03	0.28	-0.37	0	inactive
TXK (TXK tyrosine kinase)	1	-0.5	-0.19	-0.71	-0.6	inactive
LOC400201 (retired record)	1	-0.56	-0.57	-0.99	-0.1	inactive
SPIC (Spi-C transcription factor)	1	-0.04	-0.1	-0.05	0.02	inactive
LINC02210 (long independently transcribed non-coding RNA 2210)	1	-1.42	-1.46	-1.17	-1.63	inactive
LINC02210 (long independently transcribed non-coding RNA 2210)	2	0.02	-0.12	0.13	0.07	inactive
LINC02210 (long independently transcribed non-coding RNA 2210)	3	1.08	1.01	0.68	1.54	inactive
